Results of unrelated studies side by side (data: NIAID ChemDB).

Shared fields: tests in culture; organism: HIV-1; cells: CEM + CEM-SS; read-out: EC50

ECn is the concentration giving n% inhibition of infection, replication or growth.

compound | strain | changes | read by | result
Cc1cn([C@H]2C[C@H](N=[N+]=[N-])[C@@H](CO)O2)c(=O)[nH]c1=O | Calanolide A-resistant (RT T139I) | RT-T139I | XTT | 0.01 µM
Cc1cn([C@H]2C[C@H](N=[N+]=[N-])[C@@H](CO)O2)c(=O)[nH]c1=O | UC781-R (RT-Y181C) | RT-Y181C | cytopathic effect / XTT | 0.005 µM
Fc1cccc(F)c1C1SCc2nc3ccccc3n21 | TP1 | - | cytopathic effect / XTT | 2.19 µM
Cc1cn([C@H]2C[C@H](N=[N+]=[N-])[C@@H](CO)O2)c(=O)[nH]c1=O | IIIB | RT-Y181C | cytopathic effect / XTT | 0.01 µM
CC(C)=CCN1Cc2cc(Cl)cc3[nH]c(=S)n(c23)C[C@@H]1C | ED | - | cytopathic effect / MTT | 0.009 µM
O=S1(c2ccccc2)=NC(=S)Nc2ccccc21 | IIIB | - | cytopathic effect / XTT | 4.04 µM
Cc1ccnc2c1NC(=O)c1cccnc1N2C1CC1 | NL4-3 | RT-T139I | XTT | 0.002 µM
Cc1cn([C@H]2C[C@H](N=[N+]=[N-])[C@@H](CO)O2)c(=O)[nH]c1=O | NL4-3 | RT-K101E | cytopathic effect / XTT | 0.004 µM
Cc1ccnc2c1NC(=O)c1cccnc1N2C1CC1 | NL4-3 | - | cytopathic effect / XTT | 0.02 µM
Cc1cn([C@H]2C[C@H](N=[N+]=[N-])[C@@H](CO)O2)c(=O)[nH]c1=O | 205 | - | cytopathic effect / XTT | 0.0017 µM
C/C=C/CSc1cc(NC(=S)c2ccsc2C)ccc1Cl | UC781-R (RT-Y181C) | RT-Y181C | cytopathic effect / XTT | 1.6 µM
CN(C)C=NC1=NN(C)c2ncnc3c2c1cn3[C@@H]1O[C@H](CO)[C@@H](O)[C@H]1O | - | - | syncytia / thymidine uptake | 0.026 µM
Cc1cn([C@H]2C[C@H](N=[N+]=[N-])[C@@H](CO)O2)c(=O)[nH]c1=O | PM16 | - | cytopathic effect / XTT | 0.013 µM
Cc1occc1C(=S)Nc1ccc(Cl)c(/C=N/OC(C)(C)C)c1 | IIIB | - | XTT | 0.1 µM
CSC1N=S(=O)(c2ccccc2)c2ccccc2N1 | IIIB | - | cytopathic effect / XTT | 32 µM
CCCc1cc(=O)oc2c3c(c4c(c12)OC(C)(C)C=C4)O[C@H](C)[C@@H](C)[C@@H]3O | IIIB | - | XTT | 0.08 µM
Cc1ccnc2c1NC(=O)c1cccnc1N2C1CC1 | 4XAZT/Y181C (RT D67N K70R Y181C T215Y K219Q) | RT-D67N K70R Y181C T215Y K219Q | cytopathic effect / XTT | 0.8 µM
Cc1ccnc2c1NC(=O)c1cccnc1N2C1CC1 | SK1 | - | cytopathic effect / XTT | 0.2 µM
Cc1occc1C(=S)Nc1ccc(Cl)c(/C=N/OC(C)(C)C)c1 | NL4-3 (RT L74V) | RT-L74V | cytopathic effect / XTT | 0.07 µM
CCc1c(Sc2ccccn2)n(COCc2ccccc2)c(=O)[nH]c1=O | NL4-3 | RT-A98G | cytopathic effect / XTT | 0.02 µM
COc1cc(-c2ccc(N=Nc3c(S(=O)(=O)[O-])cc4cc(S(=O)(=O)[O-])cc(N)c4c3O)c(OC)c2)ccc1N=Nc1c(S(=O)(=O)[O-])cc2cc(S(=O)(=O)[O-])cc(N)c2c1O.[Na+].[Na+].[Na+].[Na+] | RF | - | cytopathic effect / XTT | >12 µM
CCc1cc(NCc2nc3c(Cl)ccc(Cl)c3o2)c(=O)[nH]c1C | UC38-R(RT-Y181C | RT-Y181C | cytopathic effect / XTT | 13.8 µM
Cc1ccnc2c1NC(=O)c1cccnc1N2C1CC1 | NL4-3 (RT K103N) | RT-K103N | cytopathic effect / XTT | >2 µM
CCCc1cc(=O)oc2c3c(c4c(c12)OC(C)(C)C=C4)O[C@@H](C)[C@H](C)[C@@H]3O | NL4-3(RT-4XAZT) | RT-D67N K70R T215Y K219Q | XTT | 0.2 µM

A second listing of 2 rows from above:

compound,strain,changes,read by,result
Cc1cn([C@H]2C[C@H](N=[N+]=[N-])[C@@H](CO)O2)c(=O)[nH]c1=O,NL4-3,RT-K101E,cytopathic effect / XTT,0.004 µM
CCc1c(Sc2ccccn2)n(COCc2ccccc2)c(=O)[nH]c1=O,NL4-3,RT-A98G,cytopathic effect / XTT,0.02 µM

Rows are shuffled and stem from different studies. Blank or dashed fields: not listed here.